The values below come from article PMC10653817, “Cryo-EM structures of African swine fever virus topoisomerase” (2023).

This series has as its system African swine fever virus (ASFV) type II topoisomerase P1192R, African swine fever virus, Q00942 1-1192. The series is described as follows: cryo-EM structure.

By stoichiometry N is commonly meant a count of units in the complex or per binding partner. “African swine fever virus (ASFV) type II topoisomerase P1192R” came in with a stoichiometry N of 2.
